The values below are quoted from earlier work in paper PMC4148168 (Journal of Medicinal Chemistry, 2014).

The data set has as its system anthrax lethal factor. The following applies: read-out: IC50 against anthrax lethal factor; cited from earlier work.

As a reminder, the IC50 is the midpoint of a concentration-inhibition curve. With `O=c1ccccn1O` [1,2-HOPO], the half-inhibitory concentration (IC50) is approximately 5 mM.
